Test results published in patent US20160122307A1, “PERHYDROQUINOXALINE DERIVATIVES” (DR. AUGUST WOLFF GMBH & CO. KG ARZNEIMITTEL, priority 2013, published 2016).

By UniProt entry, the sequences of proteins in these tests, tags left out.
UniProt P41145, whole entry: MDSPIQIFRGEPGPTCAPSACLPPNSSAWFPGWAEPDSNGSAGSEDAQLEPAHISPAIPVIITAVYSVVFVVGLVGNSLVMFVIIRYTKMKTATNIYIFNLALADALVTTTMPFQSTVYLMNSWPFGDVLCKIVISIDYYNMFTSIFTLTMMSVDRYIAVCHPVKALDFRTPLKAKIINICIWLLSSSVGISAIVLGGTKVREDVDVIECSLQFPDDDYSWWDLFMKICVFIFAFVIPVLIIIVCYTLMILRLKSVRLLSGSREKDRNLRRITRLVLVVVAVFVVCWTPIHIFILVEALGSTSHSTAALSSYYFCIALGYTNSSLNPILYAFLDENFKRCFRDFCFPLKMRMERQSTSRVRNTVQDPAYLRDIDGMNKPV

Biological target: Human opiate κ receptors (Homo sapiens, UniProt P41145)
Assay: κ opioid receptor functional assay, [35S]GTPγS binding (assay C)
Type: biochemical

SMILES	EC50
O=C(c1ccccc1)N1CCN(C(=O)Cc2ccc(Cl)c(Cl)c2)C2C(N3CCCC3)CCCC21 (centres unmarked) [L, reference compound]	260 nM
O=C(c1ccccc1)N1CCN(C(=O)Cc2ccc(Cl)c(Cl)c2)C2C(N3CCC(O)C3)CCCC21 (centres unmarked) [R, reference compound]	470 nM
